From patent US20210284952A1, “METHODS OF APPLYING ACETATE TOXICITY AND INDUCING ACETATE UPTAKE IN MICROALGAE CULTURES” (HELIAE DEVELOPMENT LLC, priority 2016, published 2021) come the findings set out here.

Structures are written as SMILES. Where two headings read alike, the source gives them in different places.

In the data set the test system is Chlorella sp. HS26.

Take `CC(=O)O` [Acetic Acid, acetic acid]: the internal acetate concentration entry (before culture medium pH lowered from 7.5 to 6.5) was “less than 500 pm” and the internal acetate concentration entry (one day after pH lowered to 6.5) was “over 2500 ppm”.
